Compound potency records, mixed from different reports. Data source: NIAID ChemDB in PubChem.

Common to all: growth or infection tests; organism: Mycobacterium tuberculosis

MIC50, MIC90 and the like: level of inhibition, or share of isolates inhibited.

SMILES | conditions | changes | method | cell line | strain | tested at | endpoint | value
O=C(OCCCl)c1cnccn1 | pH 6.6 | Pyrazinamide-resistant | resazurin |  |  |  | MIC90 | >536 µM
N/C(=N\N=C\c1ccccc1Br)c1ccncc1 |  |  |  |  | 1481 |  | MIC | 8 µg/mL
C/C(=N/NC(=S)N1CCN(c2ccccc2)CC1)c1nccs1 |  |  |  | VERO | H37Rv |  | MIC | 3.13 µg/mL
COc1cc(/C=N/N=C(\N)c2ccncc2)cc(OC)c1 |  |  |  |  | H37Rv |  | MIC | 256 µg/mL
COc1ccc(C(=O)C(c2ccc(OC)cc2)C2(O)C(=O)Nc3c(C)cc(Cl)cc32)cc1 |  |  | resazurin |  | H37Rv | 6.25 µg/mL | inhibition | 91%
CNc1nnc(-c2ccc(N=Cc3ccc([N+](=O)[O-])o3)cc2)s1 |  |  |  |  | H37Rv | 6.25 µg/mL | inhibition | 0%
CC1=CC[C@]2(C)CC(=O)[C@]3(C)C(=O)C=C(C(C)C)[C@@H]3[C@H]2CC1 |  |  | resazurin |  | H37Rv |  | EC50 | >6.25 µg/mL
O=C(CCCC(=O)NNC(=S)Nc1ccc2ccccc2c1)NNC(=S)Nc1ccc2ccccc2c1 |  |  | BACTEC |  | H37Rv |  | MIC | ≥12.5 µg/mL
O=C(/C=C/c1ccccc1)Nc1cccc(Cn2ccnc2)c1 |  |  |  |  | 103471 |  | MIC | >16 µg/mL
CO/N=C(\C(=O)N[C@@H]1C(=O)N2C(C(=O)O)=C(CSc3nc(=O)c(=O)[nH]n3C)CS[C@H]12)c1csc(N)n1 |  |  |  |  | 24 strains (drug-susceptible) |  | MIC50 | 128 µg/mL
O=C(Nc1ccc(CN2CCOCC2)cc1)c1ccc(Cl)cc1 |  |  |  |  | 103471 |  | MIC | >16 µg/mL
CN(C)CCOC1=Nc2ccccc2O/C1=C\c1ccccc1 |  |  | BACTEC |  | H37Rv |  | MIC bound | >12.5 µg/mL
COC(=O)c1ccccc1S(=O)(=O)NC(=O)Nc1nc(C)cc(C)n1 |  |  |  |  | ATCC35801 |  | MIC | 3.6 µg/mL
Cc1cc(C(=O)N/N=C/c2ccccc2O)c2cc(Br)ccc2n1 |  |  | BACTEC |  | H37Rv |  | MIC bound | >12.5 µg/mL
Fc1ccc(N(C(=S)Nc2ccccc2)C2CCCCC2)cc1Cl |  |  | visual reading |  |  | 1000 µg/mL | zone | 11.15 mm
COc1ccc2c(c1)[n+]([O-])c(-c1ccccc1)c(N)[n+]2[O-] |  |  |  |  | CS-R |  | MIC | 6.3 µg/mL
O=C(OC1CCN(c2nc(=O)c3cc(C(F)(F)F)cc([N+](=O)[O-])c3s2)CC1)c1ccccc1F |  |  | resazurin |  | H37Ra |  | MIC90 | 0.004 µM
NC(=O)c1cnccn1 | 7 d |  |  |  | TB189 | 800 µg/mL | inhibition | 99.9%
Cc1noc(NS(=O)(=O)c2ccc(NC(=O)NCCCl)cc2)c1C |  |  | BACTEC |  | H37Rv |  | MIC bound | >12.5 µg/mL
CC1=CC[C@]2(C)CC[C@@]3(C)[C@H](C(C(C)C)=C[C@@H]3O)[C@H]2CC1 |  |  | resazurin |  | H37Rv |  | EC50 | 6.25 µg/mL
CC(C)Cn1c[n+](Cc2ccc([N+](=O)[O-])cc2)c2c1C(=O)c1ccccc1C2=O |  |  | resazurin | VERO | H37Rv |  | MIC | 0.78 µg/mL
COc1c([C@@H](c2ccccc2)[C@@](O)(CCN(C)C)c2cccc3ccccc23)cc2cc(Br)ccc2c1Br |  |  | resazurin |  | Clinical isolate |  | MIC | 0.085 µg/mL
N#Cc1c(NC(=O)c2c(F)c(F)c(F)c(F)c2F)sc2c1CCOC2 |  |  | low oxygen |  |  |  | EC50 | 2.2 µM
COc1cc(/C=N/N=C(\N)c2ccncc2)cc(OC)c1OC |  |  |  |  | 1342 |  | MIC | >256 µg/mL
COc1cc(O)c2c(c1)C(=O)c1cc(C)cc(O)c1C2=O |  |  |  |  |  |  | MIC | >128 µg/mL
CCOC(=O)c1c(NC(=O)c2c(F)c(F)c(F)c(F)c2F)sc2c1CCN(C(=O)OC(C)(C)C)C2 |  |  | resazurin |  | H37Rv |  | MIC | >100 µg/mL
O=C(Nc1ccc(CN2CCOCC2)cc1)c1ccc(-c2ccccc2)cc1 |  |  |  |  | 103471 |  | MIC | >16 µg/mL
CCOC(=O)[C@H]1O[C@@H]([C@@]2(C)O[C@]3(O[C@]4(C=C[C@H]3O)O[C@H]([C@@H](C)C(=O)[C@@H](C)[C@@H](O)[C@H](C)C[C@H](C)c3c(Cl)cc(C)c(O)c3C(=O)O)[C@@H](C)C[C@H]4C)[C@H](C)[C@H]2OC)C[C@H]1O |  |  |  |  | PAS-R |  | MIC | 6.3 µg/mL
C[C@H]1[C@H](NC(=O)/C(=N\OC(C)(C)C(=O)O)c2csc(N)n2)C(=O)N1S(=O)(=O)O |  |  |  |  | 24 strains (drug-susceptible) |  | MIC90 | >64 µg/mL
CNc1ccccc1C(=O)NN=C1c2ccccc2-c2ccccc21 |  |  | BACTEC |  | H37Rv | 12.5 µg/mL | inhibition | 51%
CC(NNC(=O)c1ccncc1)c1cccc(C(F)(F)F)c1 |  |  |  |  | H37Rv (isoniazid-resistant) |  | MIC | >31.25 µg/mL
COc1cc2ccccc2cc1[C@@H](c1ccc(Cl)cc1)[C@@](O)(CCN(C)C)c1cccc2ccccc12 |  |  | resazurin |  | H37Rv |  | MIC | 0.962 µg/mL
O=C(N=Nc1c(O)[nH]c2ccccc12)C(=O)Nc1cccc(C(F)(F)F)c1 |  |  | BACTEC |  | H37Rv | 12.5 µg/mL | inhibition | -20%
N#Cc1ccc(/C=N/N=C(\N)c2ccncc2)cc1 |  |  |  |  | 1481 |  | MIC | >256 µg/mL
CSC(=S)N/N=C/c1cccc(C)n1 |  |  | BACTEC |  | H37Rv |  | MIC bound | ≤128 µg/mL
Cc1cc(O)c2c(c1)C(=O)c1cc(O)cc(O)c1C2=O |  |  |  |  |  |  | MIC | 128 µg/mL
COC(=O)C12C=CC(C1)n1c(=O)n(-c3ccccc3)c(=O)n12 |  |  | resazurin |  | H37Rv | 6.25 µg/mL | inhibition | -10%
Oc1cccc(C=Nc2ccc(-c3nnc(NCc4ccccc4)s3)cc2)c1 |  |  |  |  | H37Rv | 6.25 µg/mL | inhibition | 6%
CNC(=S)N(c1ccc(F)c(Cl)c1)C(C)C |  |  | visual reading |  |  | 1000 µg/mL | zone | 9.93 mm
O=[N+]([O-])c1ccc(C=Nc2ccc(-c3nnc(NCc4ccccc4)s3)cc2)o1 |  |  |  |  | H37Rv | 6.25 µg/mL | inhibition | 0%
Cn1ccnc1CSc1nc(N)c2c3c(sc2n1)CC(C(C)(C)C)CC3 |  |  | MTT / visual reading |  | H37Rv |  | MIC | 25 µg/mL
COc1cc2ccc(Br)cc2cc1[C@@H](c1ccccc1)[C@@](O)(CCN(C)C)c1cccc(Br)c1 |  |  | resazurin |  | Clinical isolate |  | MIC | 0.298 µg/mL
O=C(NNCc1ccccc1F)c1ccncc1 | inside macrophages |  | colony count | Macrophages | Erdman |  | EC50 | <0.28 µg/mL
COc1cc2ccc(Br)cc2cc1[C@@H](c1ccc(Cl)cc1)[C@@](O)(CCN(C)C)c1ccccc1 |  |  | resazurin |  | Clinical isolate |  | MIC | 0.091 µg/mL
CC(c1cccs1)N(C(=S)Nc1ccccc1)c1ccc(F)c(Cl)c1 |  |  | visual reading |  |  |  | MIC | 12.5 µg/mL
O=C1c2ccccc2C(=O)c2c(N=Nc3ccc(O)c(S(=O)(=O)O)c3)cccc21 |  |  | BACTEC |  | H37Rv |  | MIC bound | >12.5 µg/mL
CO[C@H]1/C=C/O[C@@]2(C)Oc3c(C)c(O)c4c(O)c(c(/C=N/N5CCN(C)CC5)c(O)c4c3C2=O)NC(=O)/C(C)=C\C=C\[C@H](C)[C@H](O)[C@@H](C)[C@@H](O)[C@@H](C)[C@H](OC(C)=O)[C@@H]1C | pH 6.0 | Pyrazinamide-resistant | resazurin |  |  |  | MIC90 | <0.016 µM
OC[C@H]1O[C@@H](Oc2ccc(/C=C/c3cc(O)cc(O)c3)cc2)[C@H](O)[C@@H](O)[C@@H]1O |  |  |  |  |  |  | MIC | >128 µg/mL
CCN(CC)CCNc1n[n+]([O-])c2ccccc2[n+]1[O-] |  |  | BACTEC |  | H37Rv |  | MIC bound | >6.25 µg/mL
C/C(=C\CO)CCC[C@H](C)CCC[C@H](C)CCCC(C)C |  |  |  |  | H37Rv | 33 µg/mL | inhibition | 63%
O=C(N/N=C/c1cccc(F)c1)c1ccncc1 |  |  |  |  | H37Rv |  | MIC | 0.05 µg/mL
CCNC(=O)c1c(NC(=O)c2c(F)c(F)c(F)c(F)c2F)sc2c1CCN(CC)C2 |  | katG Y155 truncation mutant | turbidity |  | H37Rv |  | EC90 | 11 µM
COc1ccc(-c2cc(=O)c3c(O)cc(OC)cc3o2)c(-c2c(O)cc(O)c3c(=O)cc(-c4ccc(O)cc4)oc23)c1 |  |  |  |  |  |  | MIC | 64 µg/mL
CN(C)c1ccc(C(c2c(O)c3ccc(O)cc3oc2=O)c2c(O)c3ccc(O)cc3oc2=O)cc1 |  |  | BACTEC |  | H37Rv | 12.5 µg/mL | inhibition | 19%
CCOC(=O)c1c(NC(=O)c2c(F)c(F)c(F)c(F)c2F)sc2c1CCOC2 |  |  | low oxygen |  |  |  | MIC | 4.4 µM
CCCCN1CCN(c2ccc3nc(-c4ccc5nc(-c6ccc(OC)c(OC)c6)[nH]c5c4)[nH]c3c2)CC1 |  |  | broth dilution / turbidity |  | H37Ra |  | MIC90 | 7.3 µg/mL
C/C(=C/CO)CCC[C@H](C)CCC[C@H](C)CCCC(C)C |  |  |  |  | H37Rv |  | MIC | 2 µg/mL
O=c1oc2nc(-c3ccccc3)[nH]c(=O)c2c(O)c1Cc1ccccc1 |  |  | BACTEC |  | H37Rv | 12.5 µg/mL | inhibition | 7%
CCNc1nnc(-c2ccc(N=Cc3cccc([N+](=O)[O-])c3)cc2)s1 |  |  |  |  | H37Rv | 6.25 µg/mL | inhibition | 0%
CCC(C)N(C(=S)Nc1ccccc1)c1ccc(Cl)c(Cl)c1 |  |  | visual reading |  |  | 1000 µg/mL | zone | 10.51 mm
O=C(O)c1cc(Nc2nc(Cl)nc(Cl)n2)ccc1-c1c2ccc(=O)cc-2oc2cc(O)ccc12 |  |  | BACTEC |  | H37Rv | 12.5 µg/mL | inhibition | 5%
N/C(=N\N=C\c1cccc(Br)c1)c1ccncc1 |  |  |  |  | 1054 |  | MIC | 32 µg/mL
C/C(=N\NC(=O)c1ccncc1)c1ccc(F)cc1 |  |  |  |  | H37Rv |  | MBC | 0.2 µg/mL
CCc1c2c(nc3ccc(OC(=O)N4CCC(N5CCCCC5)CC4)cc13)-c1cc3c(c(=O)n1C2)COC(=O)[C@]3(O)CC.Cl |  |  | BACTEC |  | H37Rv | 12.5 µg/mL | inhibition | 12%
Cc1ccc(Nc2nnc(-c3ccc(N=Cc4ccccc4O)cc3)s2)cc1 |  |  |  |  | H37Rv | 6.25 µg/mL | inhibition | 34%
Cc1ccc(/C=N/N=C(\N)c2ccncc2)cc1 |  |  |  |  | 1342 |  | MIC | 16 µg/mL
O=C(OCCOC(=O)c1cnccn1)c1cnccn1 | pH 6.6 | Pyrazinamide-resistant | resazurin |  |  |  | MIC90 | >365 µM
O=C(Nc1cccc(Cn2ccnc2)c1)c1ccc(-c2ccccc2)cc1 |  |  |  |  | 103471 |  | MIC | >16 µg/mL
O=C(NNCc1cccc(F)c1)c1ccncc1 |  |  |  |  | H37Rv |  | MIC | 0.39 µg/mL
CCOC(=O)c1cc(-c2ccccc2)sc1NC(=O)c1ccccc1 |  |  | resazurin |  | H37Rv |  | MIC | >100 µg/mL
CC(C)(C)C1CCc2c(sc3nc(SCc4cc(-c5ccccc5)on4)nc(N)c23)C1 |  |  | MTT / visual reading |  | H37Rv |  | MIC | >200 µg/mL
S=C(Nc1ccc(Cl)cc1)Nc1ccc(-c2n[nH]c(=S)n2-c2ccccc2)cc1 |  |  |  |  | H37Rv | 12.5 µg/mL | inhibition | 1%
C/C(=N\NC(=O)c1ccncc1)c1ccccc1F |  |  |  |  | Rifampicin-resistant |  | MIC | 0.2 µg/mL
CNC(=O)NC1NC(=O)N(C)C1=O |  |  | BACTEC |  | H37Rv | 12.8 µg/mL | inhibition | 22%
CNC(=S)N(Cc1ccco1)c1ccc(F)c(Cl)c1 |  |  | visual reading |  |  |  | MIC | 400 µg/mL
N/C(=N\N=C\c1ccc(Cl)c([N+](=O)[O-])c1)c1ccncc1 |  |  |  |  | 1342 |  | MIC | >256 µg/mL
CCOC(=O)c1c(NC(=O)c2c(F)c(F)c(F)c(F)c2F)sc2c1CCNC2=O |  | gyrA mutant (D94N) | turbidity |  | H37Rv |  | MIC | 3.2 µM
CNC(=S)N(c1ccc(Cl)c(Cl)c1)C(C)C |  |  | visual reading |  |  | 1000 µg/mL | zone | 10.02 mm
CC(C)(C)C1CCc2c(sc3nc(SCc4ccccn4)nc(N)c23)C1 |  |  | MTT / visual reading |  | H37Rv |  | MIC | 25 µg/mL
CNC(=S)N(c1ccc(F)c(Cl)c1)C1CCCCC1 |  |  | visual reading |  |  |  | MIC | 400 µg/mL
C[C@H]1COc2c(N3CCN(C)CC3)c(F)cc3c(=O)c(C(=O)O)cn1c23 |  | INH RIF resistant | resazurin |  | Clinical isolate 109 |  | MIC | 0.25 µg/mL
CCN1CCc2c(sc(NC(=O)c3c(F)c(F)c(F)c(F)c3F)c2C(=O)NC)C1 |  |  | turbidity |  | ATCC35838 |  | EC50 | 1.1 µM

A second listing of 5 rows from above:

O=C(N=Nc1c(O)[nH]c2ccccc12)C(=O)Nc1cccc(C(F)(F)F)c1 ; method: BACTEC ; strain: H37Rv ; tested at: 12.5 µg/mL ; endpoint: inhibition ; value: -20%
C[C@H]1COc2c(N3CCN(C)CC3)c(F)cc3c(=O)c(C(=O)O)cn1c23 ; changes: INH RIF resistant ; method: resazurin ; strain: Clinical isolate 109 ; endpoint: MIC ; value: 0.25 µg/mL
C/C(=C\CO)CCC[C@H](C)CCC[C@H](C)CCCC(C)C ; strain: H37Rv ; tested at: 33 µg/mL ; endpoint: inhibition ; value: 63%
CCNc1nnc(-c2ccc(N=Cc3cccc([N+](=O)[O-])c3)cc2)s1 ; strain: H37Rv ; tested at: 6.25 µg/mL ; endpoint: inhibition ; value: 0%
COc1cc(O)c2c(c1)C(=O)c1cc(C)cc(O)c1C2=O ; endpoint: MIC ; value: >128 µg/mL

Zone: diameter of growth inhibition. Blank or dashed fields: not listed here. ECn: concentration that inhibits the pathogen or its effect by n%. Inhibition is in % at the dose shown (toxicity tests: loss of growth or viability). Conditions beyond the fields shown may differ between rows. MIC bound comes from a single tested concentration.